Assay in all cases: ELISA
In general terms: ELISA stands for enzyme-linked immunosorbent assay.

For assay [1], the target named is ZM197M SOSIP.v4.1-D7324 trimer (HIV-1).
Assay [2] addresses AMC008 SOSIP.v3.2-D7324 trimer (HIV-1).
The target in assay [3] is AMC008 SOSIP.v4.1-D7324 trimer (HIV-1).
Assay [4] deals with BG505 SOSIP.664 E64K-D7324 trimer (HIV-1).
The target of assay [5] is ZM197M SOSIP.v4.2-D7324 trimer (HIV-1).
Assay [6] deals with BG505 SOSIP.664 H66R-D7324 trimer (HIV-1).
The target in assay [7] is BG505 SOSIP.664 A316W-D7324 trimer (HIV-1).
The target in assay [8] is AMC008 SOSIP.v4.2-D7324 trimer (HIV-1).

The text below walks through data of article PMC4732737.

As for “CD4-IgG2 (from UniProt P01730) (Fc fusion)”, the binding as percent of the corresponding SOSIP.664 trimer (from EC50) in assay [1] was 62%; in assay [2] it was 119%; in assay [3], 81%; in assay [4] it was 65%; in assay [5], 46%; in assay [6], 68%. The binding as percent of the corresponding SOSIP.664 trimer (from EC50) in assay [7] was found to be 81%; in assay [8], 68%.
